Measured values from several laboratories, pooled; numbers as filed in NIAID ChemDB.

Shared fields: growth or infection tests

An empty or dashed field is not shown. ECn is the concentration giving n% inhibition of infection, replication or growth. Lines come from different laboratories, so protocols vary. Percent inhibition refers to the dose given; in toxicity tests it is the harm to the cells. A number after MIC or MFC names an inhibition level or a share of isolates.

Oc1cccc(C=Nc2ccccc2O)c1 ; method: broth dilution ; organism: Cryptococcus neoformans ; endpoint: MIC ; strain: LMM 820 ; value: 2.8 µg/mL
O=S(=O)(O)c1ccc(N=Nc2c(O)ccc3cc(S(=O)(=O)O)ccc23)cc1 ; dose: 50 µg/mL ; method: cytopathic effect ; cells: Human embryonic lung cells ; organism: Adenovirus ; endpoint: inhibition ; strain: TYPE 3 ; value: 0%
CCC(CC)O[C@@H]1C=C(C(=O)O)C[C@H](N)[C@H]1NC(C)=O ; cells: MDCK ; organism: Influenza A virus ; endpoint: EC50 ; strain: H1N1 A/Beijing/262/95 ; value: 2.4 µM
O=c1[nH]c(=O)n([C@@H]2O[C@H](CO)[C@@H](O)[C@@H]2O)cc1/C=C/Cl ; dose: 0.001 µg/mL ; method: plaque count ; cells: HELF ; organism: Varicella zoster virus ; endpoint: inhibition ; strain: Ohtomo ; value: 100%
O=S(=O)([O-])c1cc(S(=O)(=O)[O-])c2cc(NS(=O)(=O)c3ccccc3)ccc2c1 ; dose: 10 µg/mL ; method: cytopathic effect ; cells: Human amnion AV3 cells ; organism: Rhinovirus ; endpoint: inhibition ; value: 20%
CCOC(=O)c1c(C)nc(NCCCCNc2ccnc3cc(Cl)ccc23)nc1-c1ccccc1[N+](=O)[O-] ; organism: Cryptococcus neoformans ; endpoint: MIC99 ; strain: F-10 ; value: 4 µg/mL
O=C(Nc1cc(S(=O)(=O)O)cc2cc(S(=O)(=O)O)cc(O)c12)c1ccccc1 ; dose: 50 µg/mL ; method: cytopathic effect ; cells: Human conjunctiva cells ; organism: Herpes simplex virus ; endpoint: inhibition ; value: 10%
O=c1[nH]c(=O)n([C@H]2C[C@H](O)[C@@H](CO)O2)cc1/C=C/Br ; dose: 0.1 µg/mL ; method: plaque count ; cells: HELF ; organism: Varicella zoster virus ; endpoint: inhibition ; strain: YS ; value: 100%
Cc1nc(NCCCCNc2ccnc3cc(Cl)ccc23)nc(-c2ccccc2[N+](=O)[O-])c1C(=O)OC(C)C ; organism: Cryptococcus gattii ; endpoint: MIC99 ; strain: ATCC 24065 ; value: 8 µg/mL
C=Cc1cn([C@@H]2O[C@H](CO)[C@@H](O)[C@@H]2O)c(=O)[nH]c1=O ; dose: 0.1 µg/mL ; method: plaque count ; cells: HELF ; organism: Varicella zoster virus ; endpoint: inhibition ; strain: HIRAI ; value: 71%
Nc1ccc2c(O)cc(S(=O)(=O)[O-])cc2c1S(=O)(=O)[O-] ; dose: 50 µg/mL ; method: cytopathic effect ; cells: Human amnion AV3 cells ; organism: Herpes simplex virus ; endpoint: inhibition ; value: 0%
CCc1cn([C@@H]2O[C@H](CO)[C@@H](O)[C@@H]2O)c(=O)[nH]c1=O ; dose: 100 µg/mL ; method: plaque count ; cells: HELF ; organism: Varicella zoster virus ; endpoint: inhibition ; strain: KANNO ; value: 29%
O=S(=O)(O)c1cc(O)c2c(O)cc(S(=O)(=O)O)cc2c1 ; dose: 50 µg/mL ; method: cytopathic effect ; cells: Human amnion AV3 cells ; organism: Adenovirus ; endpoint: inhibition ; strain: TYPE 3 ; value: 50%
Cc1cc(CCCOc2c(C)cc(-c3noc(C(F)(F)F)n3)cc2C)on1 ; method: cytopathic effect / visual reading ; cells: OHIO HELA-I ; organism: Rhinovirus ; endpoint: EC50 ; strain: Isolate 9 ; value: 0.22 µg/mL
Oc1ccccc1N=Cc1ccccc1 ; method: broth dilution ; organism: Cryptococcus neoformans ; endpoint: MIC ; strain: 28JF ; value: 8 µg/mL
C=CCc1ccc(O)c(OC)c1 ; method: turbidity ; organism: Candida albicans ; endpoint: MIC90 ; strain: 2323 ; value: 480 µg/mL
Cc1cn([C@@H]2O[C@H](CO)[C@@H](O)[C@@H]2F)c(=O)nc1N ; dose: 0.1 µg/mL ; method: plaque count ; cells: HELF ; organism: Varicella zoster virus ; endpoint: inhibition ; strain: Ohtomo ; value: 100%
Cc1cc(-c2ccc(N=Nc3c(N)c(S(=O)(=O)O)cc4cc(S(=O)(=O)O)ccc34)c(C)c2)ccc1N=Nc1c(N)ccc2cc(S(=O)(=O)O)ccc12 ; dose: 10 µg/mL ; method: cytopathic effect ; cells: Human amnion AV3 cells ; organism: Adenovirus ; endpoint: inhibition ; strain: TYPE 3 ; value: 10%
CCO/N=C/c1ccc(OCCC2CCN(c3ccc(Cl)nn3)CC2)cc1 ; method: neutral red ; cells: KB ; organism: Rhinovirus ; endpoint: EC50 ; strain: 107E (ICAM-1 receptor group 73) ; value: 0.003 µM

2 of the rows above, restated:

| compound | dose | method | cells | organism | endpoint | strain | value |
|---|---|---|---|---|---|---|---|
| O=S(=O)(O)c1ccc(N=Nc2c(O)ccc3cc(S(=O)(=O)O)ccc23)cc1 | 50 µg/mL | cytopathic effect | Human embryonic lung cells | Adenovirus | inhibition | TYPE 3 | 0% |
| Nc1ccc2c(O)cc(S(=O)(=O)[O-])cc2c1S(=O)(=O)[O-] | 50 µg/mL | cytopathic effect | Human amnion AV3 cells | Herpes simplex virus | inhibition |  | 0% |